Measurements taken from US20130205416A1.

Legend:
Assay in all cases: cell-based or functional assay
[1] = biological target: haemagglutinin of A/England/195/09 (H1N1), on PR8 recombinant virus (Influenza A virus A/England/195/09 (H1N1))
[2] = biological target: haemagglutinin of influenza virus A/WSN/33 (H1N1) (Influenza A virus A/WSN/33 (H1N1)), P03454
[3] = biological target: haemagglutinin of A/Victoria/3/75 (H3N2), on PR8 recombinant virus (Influenza A virus A/Victoria/3/75 (H3N2)), P03435
[4] = biological target: H1N1 viruses (haemagglutinin of H1N1 influenza virus, strains not given)
[5] = biological target: H3N2 viruses (haemagglutinin of H3N2 influenza virus, strains not given)
[6] = biological target: haemagglutinin of A/Vietnam/1194/04 (H5N1), on PR8 recombinant virus (Influenza A virus A/Vietnam/1194/04 (H5N1))

Binder | knockdown in plaque reduction assay at 10 µg of peptide [1] | knockdown in plaque reduction assay at 10 µg of peptide [2] | knockdown in plaque reduction assay at 10 µg of peptide [3] | inhibition of virus infection in vitro [4] | inhibition of virus infection in vitro [5] | knockdown in plaque reduction assay at 10 µg of peptide [6]
RRKKWLVFFVIYFFR (modifications not checked) [FP4 peptide] | 90% | 100% | 97% | – | – | –
WLVFFVIFYFFR (modifications not checked) [FP1-D, D-isomer of FP1] | – | – | – | 100 nM | 100 nM | –
WLVFFVIAYFAR (modifications not checked) [FP2 peptide (…)] | 66% | – | 75% | – | – | 65%
